Pooled drug test results. Numbers come from NIAID ChemDB, via PubChem.

Common to all: host cell toxicity; cell line: MDBK; measure: CC50

Blank or dashed fields: not listed here. CCn is the concentration with n% toxicity to the cells. Conditions beyond the fields shown may differ between rows.

| compound | read by | value |
|---|---|---|
| Fc1ccc(Cn2ccc3nc(-c4ccccc4)nc-3c2)cc1 | - | 50 µg/mL |
| O=[N+]([O-])c1ccc2[nH]c(O)c(N=NC(=S)Nc3ccc(Cl)cc3)c2c1 | - | 19 µg/mL |
| CCOC(=O)c1c(CSc2ccccc2)n(C)c2cc(Br)c3c(c12)CN(C)CO3 | ATP | 17.5 µM |
| C=CCNC(=S)N=Nc1c(O)n(CN2CCOCC2)c2ccc([N+](=O)[O-])cc12 | - | >50 µg/mL |
| Brc1ccc(Cn2ccc3nc(CCc4ccccc4)nc-3c2)cc1 | - | 17 µg/mL |
| CCCN(CCC)CCSc1nnc2c(n1)[nH]c1ccccc12 | crystal violet | >90 µM |
| O=[N+]([O-])c1ccc(NC(=S)N=Nc2c(O)[nH]c3ccc([N+](=O)[O-])cc23)cc1 | - | 22 µg/mL |
| CC(=O)O[C@H]1C[C@H](n2cc(/C(Cl)=C\I)c(=O)[nH]c2=O)O[C@@H]1CO | neutral red | >100 µM |
| O=[N+]([O-])c1ccc2[nH]c(O)c(N=NC(=S)Nc3ccc(Br)cc3)c2c1 | - | 17 µg/mL |
| CC12CCC(CC1)C(C)(C)O2 | MTT | 3000 µg/mL |
| CC(=O)O[C@@H]1C[C@@H](CO)O[C@H]1n1cc(/C(I)=C\I)c(=O)[nH]c1=O | neutral red | >100 µM |
| CCOC(=O)c1c(CSc2ccccc2)n(C)c2cc(N=[N-])c3c(c12)CN(C)CO3 | ATP | 19.9 µM |
| CC(=O)O[C@@H]1[C@H](OC(C)=O)[C@@H](CO)O[C@H]1n1cc(C#CBr)c(=O)[nH]c1=O | neutral red | >100 µM |
| CCOC(=O)c1c(COc2ccccc2)n(C)c2cc(Br)c(O)c(CN(N3CCC(CO)CC3)N3CCC(CO)CC3)c12 | ATP | 20 µM |
| Clc1ccccc1-c1nc2ccn(Cc3ccc(Br)cc3)cc-2n1 | - | >100 µg/mL |
| CC1S/C(=N/N=C2\C(=O)Nc3ccc([N+](=O)[O-])cc32)N(c2ccc(Br)cc2)C1=O | - | >50 µg/mL |
| N#Cc1cccc(Cn2ccc3nc(-c4ccccc4)nc-3c2)c1 | - | >100 µg/mL |
| CC(=O)O[C@@H]1[C@H](OC(C)=O)[C@@H](CO)O[C@H]1n1cc(C#CI)c(=O)[nH]c1=O | neutral red | >100 µM |
| Clc1cccc(Cn2ccc3nc(-c4ccccc4)nc-3c2)c1 | - | 22 µg/mL |
| COc1ccc2c(c1)[C@@H]1C[C@]1(C(=O)N1[C@@H]3CC[C@H]1CN(C)C3)Cn1c-2c(C2CCCCC2)c2ccc(C(=O)NS(=O)(=O)N(C)C)cc21 | resazurin | 43 µM |
| CC(C)(C)CC(C)(C)NC(=O)[C@@H]1[C@H](O)[C@@H](O)CN1C(=O)c1ccccc1 | visual reading | >300 µM |
| CCOC(=O)c1c(CSc2ccccc2)n(C)c2cc(C#N)c(O)c(CN(N(C)C)N(C)C)c12 | ATP | 68.3 µM |
| Cc1ccc(N2C(=O)CS/C2=N/N=C2\C(=O)Nc3ccc([N+](=O)[O-])cc32)cc1 | - | >50 µg/mL |
| CCOC(=O)c1c(CS(=O)(=O)c2ccccc2)n(C)c2cc(-c3cccnc3)c(O)c(CN(C)C)c12 | ATP | 28.1 µM |
| CN(C)c1cccc(-c2nc3ccn(Cc4ccc(Br)cc4)cc-3n2)c1 | - | 8.1 µg/mL |
| CCOC(=O)c1c(CSc2ccccc2)n(C)c2cc(C#N)c(O)c(CN(N3CCN(CCOCCO)CC3)N3CCN(CCOCCO)CC3)c12 | ATP | 68 µM |
| CCNC(=S)N=Nc1c(O)[nH]c2ccc([N+](=O)[O-])cc12 | - | >50 µg/mL |
| CCOC(=O)c1c(CSc2ccccc2)n(C)c2cc(Br)c(O)c(CN(C)C)c12.Cl | ATP | 16.1 µM |
| CC1S/C(=N/N=C2\C(=O)Nc3ccc([N+](=O)[O-])cc32)N(c2ccccc2)C1=O | - | 7 µg/mL |
| CCOC(=O)c1c(CSc2ccccc2)n(C)c2cc(C#N)c(O)c(CN(N3CCC(CO)CC3)N3CCC(CO)CC3)c12 | ATP | 100 µM |
| C=CCN1C(=O)C(C)S/C1=N/N=C1\C(=O)Nc2ccc([N+](=O)[O-])cc21 | - | >50 µg/mL |